A mixed list of measured activities; the numbers were collected in NIAID ChemDB.

All rows: tests in culture; species: Staphylococcus aureus; measure: MIC

Neighbouring rows are from separate reports.

smiles | strain | value
CN1CCN(C)c2cc3c(cc21)c(=O)c(C(=O)O)cn3C1CC1 | ATCC 6538P | >100 µg/mL
CO/N=C1\CN(c2nc3c(cc2F)c(=O)c(C(=O)O)cn3C2CC2)CC1CN | KU2244 | 0.125 µg/mL
CC[C@H]1OC(=O)[C@@](C)(F)C(=O)[C@H](C)[C@@H](O[C@@H]2O[C@H](C)C[C@H](N(C)C)[C@H]2O)[C@@]2(C)C[C@@H](C)C(=NC(C)=O)[C@H](C)[C@@H](OC/C(=N\OCc3ccc4cnn(C(N)=O)c4c3)CO2)[C@]1(C)O | 27660 (erythromycin A -resistant) | 0.13 µg/mL
CC(=O)NC[C@H]1CN(c2ccc(-c3cc(C#N)cs3)c(F)c2)C(=O)O1 | UC9213 (methicillin-susceptible) | ≤0.5 µg/mL
CNCCCN(C)c1cc2c(cc1F)c(=O)c(C(=O)O)cn2C1CC1 | ATCC 5278 (methicillin-resistant) | 3.12 µg/mL
COC(=S)NC[C@H]1CN(c2ccc3c(c2)-n2cccc2COC3)C(=O)O1 | ATCC 29213 (MSSA) | 0.5 µg/mL
CCCCCCCCOC[N+](C)(C)CCCCCCCC | ATCC33592 | 149 µM
CC[C@H]1OC(=O)[C@H](C)C(=O)[C@H](C)[C@@H](O[C@@H]2O[C@H](C)C[C@H](N(C)C)[C@H]2O)[C@@]2(C)C[C@@H](C)C(=NC(C)=O)[C@H](C)[C@@H](OC/C(=N\OCc3ccc(-c4cccc(N)n4)s3)CO2)[C@]1(C)O | 27660 (erythromycin A -resistant) | 0.25 µg/mL
CCCCCCCCCCCCSC[N+](C)(C)CCCCCCCCCCCC | ATCC 6538 | 5.38 µM
CNC(=O)N[C@@H]1CCN(c2ccc(N3C[C@H](CNc4ccon4)OC3=O)cc2F)C1 | 078 (oxford) | 0.5 µg/mL
C=CC(=O)NC[C@H]1CN(c2ccc3c(c2)-n2cccc2COC3)C(=O)O1 | ATCC 29213 (MSSA) | 2 µg/mL
NCCCCCCCNc1cc2c(cc1F)c(=O)c(C(=O)O)cn2C1CC1 | ATCC 5278 (methicillin-resistant) | >100 µg/mL
COC(=O)n1ccc(-c2ccc(N3C[C@H](CNC(C)=O)OC3=O)cc2F)n1 | UC9213 (methicillin-susceptible) | 8 µg/mL
CC[C@H]1OC(=O)[C@@](C)(F)C(=O)[C@H](C)[C@@H](O[C@@H]2O[C@H](C)C[C@H](N(C)C)[C@H]2O)[C@@]2(C)C[C@@H](C)C(=NC(C)=O)[C@H](C)[C@@H](OC/C(=N\OCc3ccc(-c4cccc(N)n4)s3)CO2)[C@]1(C)O | 29213 (erythromycin A-susceptible) | 0.25 µg/mL
CS(=O)(=O)N[C@@H]1CCN(c2ccc(N3C[C@H](COc4ccon4)OC3=O)cc2F)C1 | 004 (methicillin quinolone-resistant) | 1 µg/mL
CC[C@H]1OC(=O)[C@H](C)C(=O)[C@H](C)[C@@H](O[C@@H]2O[C@H](C)C[C@H](N(C)C)[C@H]2O)[C@@]2(C)C[C@@H](C)C(=NC(=O)CN)[C@H](C)C(OC/C(=C\C=C\c3ccccc3)CO2)[C@]1(C)O | 29213 (erythromycin-susceptible) | 1 µg/mL
CCCCCCCCCCSC[N+](C)(C)CCCCCCCC | ATCC33592 | 13.2 µM
O=C(NC[C@H]1CN(c2ccc3c(c2)-n2cccc2COC3)C(=O)O1)C(Cl)Cl | ATCC 29213 (MSSA) | 4 µg/mL
O=C(O)c1cn(C2CC2)c2cc(NCCCNC3CCCCC3)c(F)cc2c1=O | ATCC 6538P | 50 µg/mL
O=CNC[C@H]1CN(c2ccc3c(c2)-n2cccc2COC3)C(=O)O1 | ATCC 29213 (MSSA) | 8 µg/mL
CC[C@H]1OC(=O)[C@H](C)C(=O)[C@H](C)[C@@H](O[C@@H]2O[C@H](C)C[C@H](N(C)C)[C@H]2O)[C@@]2(C)C[C@@H](C)C(=NC(C)=O)[C@H](C)C(OC/C(=C\C#Cc3ccc(N)cc3)CO2)[C@]1(C)O | 29213 (erythromycin-susceptible) | 0.13 µg/mL
CC(O)CNc1cc2c(cc1F)c(=O)c(C(=O)O)cn2C1CC1 | ATCC 5278 (methicillin-resistant) | >100 µg/mL
CC(=O)NC[C@H]1CN(c2ccc(-c3cnc(C(C)=O)s3)c(F)c2)C(=O)O1 | UC6685 (methicillin-resistant) | 0.5 µg/mL
CC(C)CC(=O)NC[C@H]1CN(c2ccc3c(c2)-n2cccc2COC3)C(=O)O1 | ATCC 33591 (MRSA) | 16 µg/mL
CCCCCCCCCCCC[N+](C)(C)COCCCCCCCC | ATCC 6538 | 0.77 µM
CC[C@H]1OC(=O)[C@H](C)C(=O)[C@H](C)[C@@H](O[C@@H]2O[C@H](C)C[C@H](N(C)C)[C@H]2O)[C@@]2(C)C[C@@H](C)C(=NC(C)=O)[C@H](C)[C@@H](OC/C(=N\OCc3ccc(C(N)=O)s3)CO2)[C@]1(C)O | 33591 (erythromycin methicillin-resistant) | >64 µg/mL
CC(=O)NC[C@H]1CN(c2ccc3c(c2)OCc2nccn2-3)C(=O)O1 | 48N | 0.5 µg/mL
CC[C@H]1OC(=O)[C@H](C)C(=O)[C@H](C)[C@@H](O[C@@H]2O[C@H](C)C[C@H](N(C)C)[C@H]2O)[C@@]2(C)C[C@@H](C)C(=NC(C)=O)[C@H](C)C(OC/C(=C\c3cnc4ccccc4c3)CO2)[C@]1(C)O | 33591 (erythromycin methicillin-resistant) | >64 µg/mL
CC[C@H]1OC(=O)[C@@](C)(F)C(=O)[C@H](C)[C@@H](O[C@@H]2O[C@H](C)C[C@H](N(C)C)[C@H]2O)[C@@]2(C)C[C@@H](C)C(=NC(C)=O)[C@H](C)[C@@H](OC/C(=N\OCC#Cc3cccc(N)n3)CO2)[C@]1(C)O | 33591 (erythromycin methicillin-resistant) | >64 µg/mL
Cc1c(NCCO)c(F)cc2c(=O)c(C(=O)O)cn(-c3cc(N)c(F)cc3F)c12 | W806 (methicillin-resistant) | 2 µg/mL
CC(=O)NC[C@H]1CN(c2ccc(-c3cnn(C(C)=O)c3)c(F)c2)C(=O)O1 | UC6685 (methicillin-resistant) | 2 µg/mL
O=C(CO)N[C@H]1CCN(c2ccc(N3C[C@H](COc4ccon4)OC3=O)cc2F)C1 | 004 (methicillin quinolone-resistant) | 8 µg/mL
CC(=O)NC[C@H]1CN(c2ccc(-c3ccn[nH]3)c(F)c2)C(=O)O1 | UC6685 (methicillin-resistant) | 1 µg/mL
CCCCCCCCCCCC[N+](C)(C)COCC(C)CC | ATCC33592 | 2 µM
Cc1c(NCCCO)c(F)cc2c(=O)c(C(=O)O)cn(-c3cc(N)c(F)cc3F)c12 | 209P | 0.015 µg/mL
CC[C@H]1OC(=O)[C@H](C)C(=O)[C@H](C)[C@@H](O[C@@H]2O[C@H](C)C[C@H](N(C)C)[C@H]2O)[C@@]2(C)C[C@@H](C)C(=NC(C)=O)[C@H](C)C(OC/C(=C\C#Cc3ccc(N)nc3)CO2)[C@]1(C)O | 27660 (erythromycin-resistant) | 0.13 µg/mL
Cc1c(NC(C)C)c(F)cc2c(=O)c(C(=O)O)cn(-c3cc(N)c(F)cc3F)c12 | W44 (methicillin-resistant) | 0.06 µg/mL
CC[C@H]1OC(=O)[C@@](C)(F)C(=O)[C@H](C)[C@@H](O[C@@H]2O[C@H](C)C[C@H](N(C)C)[C@H]2O)[C@@]2(C)C[C@@H](C)C(=NC(C)=O)[C@H](C)[C@@H](OC/C(=N\OCc3ccc(C(N)=O)cc3)CO2)[C@]1(C)O | 27660 (erythromycin A -resistant) | 0.13 µg/mL
Cc1cn(-c2ccc(N3C[C@H](CNc4ccon4)OC3=O)cc2F)cn1 | 078 (oxford) | 0.13 µg/mL
CC[C@H]1OC(=O)[C@H](C)C(=O)[C@H](C)[C@@H](O[C@@H]2O[C@H](C)C[C@H](N(C)C)[C@H]2O)[C@@]2(C)C[C@@H](C)/C(=N\C(=O)OC)[C@H](C)C(OC/C(=C\C=C\c3ccccc3)CO2)[C@]1(C)O | 29213 (erythromycin-susceptible) | 0.5 µg/mL
O=C(O)c1cn(C2CC2)c2cc(NCCN3CCCCC3)c(F)cc2c1=O | ATCC 5278 (methicillin-resistant) | >100 µg/mL
N=Cc1cn(-c2ccc(N3C[C@H](COc4ccon4)OC3=O)cc2F)cn1 | 122 (novobiocin-resistant) | 2 µg/mL
CC[C@H]1OC(=O)[C@H](C)C(=O)[C@H](C)[C@@H](O[C@@H]2O[C@H](C)C[C@H](N(C)C)[C@H]2O)[C@@]2(C)C[C@@H](C)C(=NC(C)=O)[C@H](C)C(OC/C(=C\C=C\c3cccnc3)CO2)[C@]1(C)O | 33591 (erythromycin methicillin-resistant) | >64 µg/mL

A second listing of 2 rows from above:

{"smiles": "CC(=O)NC[C@H]1CN(c2ccc(-c3cnc(C(C)=O)s3)c(F)c2)C(=O)O1", "strain": "UC6685 (methicillin-resistant)", "value": "0.5 µg/mL"}
{"smiles": "CC[C@H]1OC(=O)[C@H](C)C(=O)[C@H](C)[C@@H](O[C@@H]2O[C@H](C)C[C@H](N(C)C)[C@H]2O)[C@@]2(C)C[C@@H](C)C(=NC(=O)CN)[C@H](C)C(OC/C(=C\\C=C\\c3ccccc3)CO2)[C@]1(C)O", "strain": "29213 (erythromycin-susceptible)", "value": "1 µg/mL"}